Experimental data: PubChem BioAssay AID624099 (ICCB-Longwood, 2012)
This is one part, drawn at random, of about 21,000 deposited reagents. 497 of them (2.4%) count as active. 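Higher z means weaker E2 silencing; only reporter increases were scored, and knock-downs that hurt cell survival may mask genuine repressor factors.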 Entries without a mark were called inactive. The numbers tell different reagents against one gene apart. No sequences are given here.

Test: 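Host factors E2 relies on to silence an HPV18 LCR reporter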 (primary screen)
Cell system: human C33A cervical carcinoma cells (HPV-negative) stably expressing BPV1 E2 and an HPV18 LCR luciferase reporter
Knock-down reagent: siRNA pool against human genes, 40 nM
Time to read-out: 72 h
Measurement: 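Per-well luciferase luminescence, z-scored on each plate against the plate mean and SD with control wells left out, then averaged across three replicate plates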
Reading the numbers: mean z-score and z-score: higher = stronger reporter signal, weaker E2 silencing
Call rule: 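Mean z ≥ 2 together with z ≥ 2 in two or more of the three replicates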

target gene	pool no.	mean z-score	z-score, replicate A	z-score, replicate B	z-score, replicate C
LOC388652 (retired record)	1	-0.83	-0.47	-1.19	-0.82
LOC388915 (retired record)	1	-0.46	-0.49	-0.63	-0.26
LOC401394 (retired record)	1	0.1	0.15	0.06	0.08
CD58	1	1.76	1.78	1.78	1.73
OR4P4	1	0.3	-0.03	0.71	0.23
TTPA	1	-0.2	-0.25	-0.25	-0.1
AKAP13	1	0.47	0	0.62	0.8
ARMC3	1	0.45	0.27	0.57	0.5
SCRT1	1	0.46	0.76	0.47	0.14
SCRT1	2	2.52 (active)	2.7	2.7	2.16
ZNF474	1	0.36	0.14	0.71	0.22
LINC01667	1	0.39	0.23	0.52	0.42
MTNAP1	1	-0.69	-0.65	-0.36	-1.07

2 consecutive reagents already listed, quoted:
target gene	pool no.	mean z-score	z-score, replicate A	z-score, replicate B	z-score, replicate C
LINC01667	1	0.39	0.23	0.52	0.42
MTNAP1	1	-0.69	-0.65	-0.36	-1.07

The results go on.
target gene	pool no.	mean z-score	z-score, replicate A	z-score, replicate B	z-score, replicate C
PSMA8	1	1.19	1.08	0.69	1.81
SMCO2	1	0.55	0.62	0.48	0.54
VAMP7	1	-0.67	-0.5	-0.81	-0.7
OR52E6	1	0.22	0.21	0.29	0.17
NRF1	1	1.15	1.23	1.22	1.02
PAQR6	1	0.01	-0.32	-0.13	0.47
COTL1	1	0.66	0.45	0.89	0.62
KIF7	1	-0.72	-0.95	-0.47	-0.75
KIF7	2	0.8	1.02	0.64	0.74
SRRM2-AS1	1	0.18	0.71	0.03	-0.21
